Biological target: SNAP25 197 from lysate of BoNT/A treated N2-42F cells (mouse, UniProt P60879 1-197)
Test: sandwich ELISA; 400 ng capture IgG per well; […] C16 IgG-HRP detection

B1: B4 (antibody, V domains shown)
VH: EVKLVESGGGLVKPGGSLKLSCAASGFTFSNYGMSWVRQTPEKRLEWVATISSGGSYTYYPDSVKGRFTISRDNAKNTLYLQMSSLRSEDTAMYYCARHEGGGNPYFDYWGQGTTLTVSS
VL: DVLMTQTPLSLPVSLGDQASISCRSSQSLVHSNGNTYLHWYLQKPGQSPKLLIYKVSNRFSGVPDRFSGSGSGTDFTLKISRVEAEDLGVYFCSQNTLVPWTFGGGTKLEIK
  binding result: binds

Reference: KR20200072008A (dated 2020)
